Molecules are shown by their SMILES. ± gives the standard deviation of the averaged measurements. Shown are results outside the selection of lowest values, which stands elsewhere.

The first experiment deals with E. coli TESEC Mtb Asd. Put plainly: growth (OD600 after 10 h); higher = more growth (less inhibition). The conditions noted are these: arabinose induction (level): High; compound 0.1 mM; raw OD600 reference: median of DMSO wells 0.331, cell-free background 0.041. The method, then:
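TESEC E. coli strains in which the native enzyme is deleted and replaced by arabinose-inducible Mtb Asd, DapB, CysH or TrpD, each grown in its selective medium. Strains were screened against the Prestwick library at 0.1 mM and 1% DMSO in 384-well format at low and high arabinose induction. Growth is read as OD600 after 10 h in triplicate.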
Molecule `COc1cc(Br)c(C[N+]2(CCOCCC3CCC4CC3C4(C)C)CCOCC2)cc1OC` (configuration not stated) [Pinaverium bromide] displayed a growth of 0.0512 ± 0.0011.

The experiment is the same for the next values; noted with them: arabinose induction (level): Low; compound 0.1 mM; raw OD600 reference: median of DMSO wells 0.417, cell-free background 0.041.
`COc1cc(Br)c(C[N+]2(CCOCCC3CCC4CC3C4(C)C)CCOCC2)cc1OC` (configuration not stated) [Pinaverium bromide] had a growth of 0.0523 ± 0.0023.
